In paper PMC9862759 (Viruses, 2023):

Test system: SARS-CoV-2 pseudovirus

SMILES: O=c1c(O)c(-c2ccc(O)c(O)c2)oc2cc(O)cc(O)c12 [compound 15, Quercetin]
- fold stronger antiviral activity than EC (22): 8.6 fold

SMILES: O=c1cc(-c2ccccc2)oc2cc(O[C@@H]3O[C@H](CO[C@@H]4O[C@H](CO)[C@@H](O)[C@H](O)[C@H]4O)[C@@H](O)[C@H](O)[C@H]3O)c(O)c(O)c12 [compound 11, Oroxin B]
- decrease in antiviral activity compared to baicalein (7): more than 50%

SMILES: O=C(O[C@@H]1Cc2c(O)cc(O)cc2O[C@@H]1c1ccc(O)c(O)c1)c1cc(O)c(O)c(O)c1 [compound 24, (-)-Epicatechin gallate]
- fold stronger antiviral activity than EC (22): 2.5 fold

SMILES: O=C(O[C@@H]1Cc2c(O)cc(O)cc2O[C@@H]1c1cc(O)c(O)c(O)c1)c1cc(O)c(O)c(O)c1 [compound 25, (-)-Epigallocatechin gallate]
- fold more potent antiviral entry activity than EGC (23): 2.3 fold

SMILES: COc1c(O)cc2oc(-c3ccccc3)cc(=O)c2c1O [compound 8, Oroxylin A]
- fold more potent antiviral entry activity than chrysin (1): at least 2.7 fold
